From patent publication US20050250106
At least one result comes from cells or an extract, where the contact may be indirect. Negatives hold for the conditions tested.

Test system: NF-kB p50 (p50/p65 heterodimer)
Assay: EMSA
Details: TAR alone does not inhibit p50 binding to DNA probe; protein in an extract; variant of TAR-a-p50 (TAR-NF-kB aptamer transcript)

“UCUGGUUAGACCAGAUCUGAGCCUGGGAGCUCUCUGGCUAGCUAGGGAACCCACU [HIV-1 TAR control transcript]”: no binding.
